Measured values published in paper PMC5431781, “Structural studies of the periplasmic portion of the diguanylate cyclase CdgH from Vibrio cholerae” (Scientific Reports, 2017).

The chains behind the UniProt entries cited, without tags or fusion partners. Where a name states a change or a piece, a line headed by the entry shows the natural chain unless it says otherwise.
UniProt Q9KT38: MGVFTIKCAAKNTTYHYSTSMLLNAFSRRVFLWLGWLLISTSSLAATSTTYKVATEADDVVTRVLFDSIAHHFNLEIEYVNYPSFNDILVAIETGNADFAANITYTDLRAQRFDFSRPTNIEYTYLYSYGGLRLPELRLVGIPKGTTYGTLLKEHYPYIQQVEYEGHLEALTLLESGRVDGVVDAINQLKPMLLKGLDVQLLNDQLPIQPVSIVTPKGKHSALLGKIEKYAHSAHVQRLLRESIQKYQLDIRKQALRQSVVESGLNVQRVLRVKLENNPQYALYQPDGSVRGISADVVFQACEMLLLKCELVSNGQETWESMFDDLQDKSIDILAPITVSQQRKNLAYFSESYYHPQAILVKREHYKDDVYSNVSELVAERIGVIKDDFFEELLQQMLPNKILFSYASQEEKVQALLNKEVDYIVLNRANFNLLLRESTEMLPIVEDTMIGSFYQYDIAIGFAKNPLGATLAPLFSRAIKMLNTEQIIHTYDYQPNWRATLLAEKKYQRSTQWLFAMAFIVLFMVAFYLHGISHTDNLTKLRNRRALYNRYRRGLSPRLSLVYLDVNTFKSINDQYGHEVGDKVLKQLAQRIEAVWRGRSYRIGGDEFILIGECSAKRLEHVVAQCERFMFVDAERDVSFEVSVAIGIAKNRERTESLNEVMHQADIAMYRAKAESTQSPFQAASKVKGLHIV

Columns and labels:
PBPb-I^E56A = PBPb-I^E56A (Vibrio cholerae, UniProt Q9KT38, E56A); experiment: ITC, amino acids vs PBPb-I E56A mutant; settings: 20 mM Tris pH 8.0, 150 mM NaCl, 25 °C, refolded protein
PBPb-I^R109A = PBPb-I^R109A (Vibrio cholerae, UniProt Q9KT38, R109A); experiment: ITC, amino acids vs PBPb-I R109A mutant; settings: 20 mM Tris pH 8.0, 150 mM NaCl, 25 °C, refolded protein
PBPb-I^E122A = PBPb-I^E122A (Vibrio cholerae, UniProt Q9KT38, E122A); experiment: ITC, amino acids vs PBPb-I E122A mutant; settings: 20 mM Tris pH 8.0, 150 mM NaCl, 25 °C, refolded protein
[1] = target: PBPb-I^E56A/R109A/E122A/PBPb-II (Vibrio cholerae, UniProt Q9KT38, E122A/E56A/R109A); experiment: ITC, amino acids vs tandem PBPb domains with triple-mutated PBPb-I (probes PBPb-II); settings: ITC (iTC200), 20 mM Tris pH 8.0, 150 mM NaCl, 25 °C; protein purified without refolding

Substance L-ornithine has a Ka (PBPb-I^E56A) of 41100 ± 8020 M⁻¹, a ΔH (PBPb-I^E56A) of -6.08 ± 0.55 kcal/mol and a Ka (PBPb-I^R109A) of 653 ± 117 M⁻¹. For the same substance, the Kd (PBPb-I^R109A) was 1.53 mM, the ΔH (PBPb-I^R109A) was -5.09 ± 0.75 kcal/mol and the Ka (PBPb-I^E122A) was 441 ± 98 M⁻¹. For the same substance, the Kd (PBPb-I^E122A) was 2.27 mM, the ΔH (PBPb-I^E122A) was -9.74 ± 1.88 kcal/mol and the Ka [1] was 314 ± 40 M⁻¹. For the same substance, the Kd [1] was 3.18 mM and the ΔH [1] was -2.35 ± 0.22 kcal/mol.
